From paper PMC10269446

Target: T1, rOmpR (OmpR-6xHis) (UniProt A6TF28)
T1 sequence (looked up): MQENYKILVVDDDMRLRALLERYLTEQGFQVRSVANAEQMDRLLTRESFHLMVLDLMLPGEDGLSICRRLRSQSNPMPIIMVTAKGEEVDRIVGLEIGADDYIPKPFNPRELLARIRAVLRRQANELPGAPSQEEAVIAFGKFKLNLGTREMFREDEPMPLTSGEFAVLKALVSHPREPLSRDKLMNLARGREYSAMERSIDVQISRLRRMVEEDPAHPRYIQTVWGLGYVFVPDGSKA
Assay: EMSA
Details: recombinant protein, residues 1-239, protein details: C-terminal His6 (pET28a), probe letters rebuilt from the primers and the genome

“CAATGATGAGCAGCATAGTGATGTTAAATTTTTATTATAAATGTCAATAAAAGGTTTTTATTGTATGTGAGGTTGTTTTAGATAATGTCCTCACTTTTTATCTTGAATATCAAAAGCATGAAAAATAGTGTTTTATGTCCTTGATTCATTAAAGGGCGCTTGAAATGTTTATTATGTGATCTGATGCACGCTTTAATTGCCGTGTTTCCTCGTTATTTGCAGTTTTGTATGACCGCTCACAGAACGCTGAAATGCACGGAAAGTTGTCCGTTGGAAAATAATTAAACATTTATTCACTATTTTGCTACTTATTGTTTGAAATCACGGGGCGTCACCGTATAATTTGTCCGCTTTTTGATGCTTGACTCTTCGTCTTAAAGGACGTTTTATACGACACGCGACATACCTCAAAGGGAGCAGG (double strand) [Patp1]”: binds (phosphorylated with 25 mM acetyl phosphate, 1 mM MgCl2, 0-20 uM rOmpR-P); binds (unphosphorylated (no acetyl phosphate), 10 uM rOmpR).

Protein sequences can lack the tags named with them.
